Results of unrelated studies side by side (data: NIAID ChemDB).

Common to all: tests in culture; organism: Hepatitis C virus; cells: Huh7; method: replicon; read-out: EC50

ECn: concentration that inhibits the pathogen or its effect by n%.

COc1ccc(OC)c(S(=O)(=O)Oc2ccccc2/C=N/NC(=O)Cc2ccccc2)c1 ; value: >50 µM
O=C(c1ccc2c(C3CCCCC3)c3n(c2c1)CC(C(=O)N1CCOCC1)Cc1ccccc1-3)N1CCOCC1 ; value: 0.01–1 µM
CNC(=O)c1c(-c2ccc(F)cc2)oc2cc(N3CCOCC3)c(OCc3ccc(C#N)cc3)cc12 ; value: <10 µM
O=C(O)c1ccc2c(C3CCCCC3)c3n(c2c1)CCCc1occc1-3 ; value: 1–10 µM
CNC(=O)c1c(-c2ccc(F)cc2)oc2cc(-c3c(C)noc3C)c(OCC3CC3)cc12 ; value: <1 µM
O=C(Cc1cccc(N2CCCC2)c1)N/N=C/c1ccccc1OS(=O)(=O)c1ccc(C(F)(F)F)cc1 ; value: 5–50 µM
CNC(=O)c1c(-c2ccc(F)cc2)oc2cc(N(CS(C)(=O)=O)C(=O)NC)c(OC)cc12 ; value: <1 µM
O=C(O)c1ccc2c(C3CCCCC3)c3n(c2c1)CC(=O)N3c1ccccc1 ; value: >10 µM
CNC(=O)c1c(-c2ccc(F)cc2)oc2cc(N(C)S(C)(=O)=O)c(OCc3ccc(S(C)(=O)=O)cc3)cc12 ; value: <1 µM
C[C@@H](NC(=O)OCc1ccccc1)C(=O)Nc1ccc(C2SC(=Nc3cccc(F)c3)N(CC3CCCO3)C2=O)cc1 ; value: 0.1–1 µM
CNC(=O)c1c(-c2ccc(F)cc2)oc2cc(N3CCSCC3)c(OC(C)C)cc12 ; value: <1 µM
Cc1cnc(N2C(=O)C(c3ccc(NC(=O)[C@H]4CCCN4C(=O)Cc4ccccc4)cc3)SC2=Nc2ccc(N3CCOCC3)cc2)cn1 ; value: <0.1 µM
CNC(=O)c1c(-c2ccc(F)cc2)oc2cc(-c3cc(COC(C)C)on3)c(OC)cc12 ; value: <1 µM
C[N+](C)(C)S(=O)(=O)NC(=O)c1ccc2c(C3CCCCC3)c3n(c2c1)CC(C(=O)N1CCOCC1)=Cc1ccccc1-3 ; value: 0.01–1 µM
Cc1ccc(S(=O)(=O)Cc2ccccc2/C=N/NC(=O)Cc2ccccc2)cc1 ; value: <5 µM
CNC(=O)c1c(-c2ccc(F)cc2)oc2cc(N(Cc3ccc(OC)cc3)S(C)(=O)=O)c(OCc3ccc(OC)cc3)cc12 ; value: <1 µM
O=C(O)/C=C/c1ccc(NC(=O)C2(NC(=O)c3ccc4c(C5CCCCC5)c5n(c4c3)CCCc3[nH]cnc3-5)CCCC2)cc1 ; value: 1–10 µM
C[C@@H](NC(=O)OCc1ccccc1)C(=O)Nc1ccc(C2SC(=Nc3ccc(N4CCOCC4)cc3)N(Cc3ccco3)C2=O)cc1 ; value: <0.1 µM
N#Cc1ccc2c(C3CCCCC3)c3n(c2c1)CCCc1ncccc1-3 ; value: 0.01–1 µM
CNC(=O)c1c(-c2ccccc2)oc2ccc(COC)cc12 ; value: <30 µM
O=C(Cc1cc(F)ccc1F)N/N=C/c1ccccc1OS(=O)(=O)c1ccc(C(F)(F)F)cc1 ; value: <5 µM
CC(C)S(=O)(=O)NC(=O)c1ccc2c(C3CCCCC3)c3n(c2c1)CC(C(=O)N1CCOCC1)=Cc1ccccc1-3 ; value: 0.01–1 µM
CN(C)c1cccc(OCC(=O)N/N=C/c2ccccc2OS(=O)(=O)c2ccc(C(F)(F)F)cc2)c1 ; value: >50 µM
C[C@@H](NC(=O)OCc1ccccc1)C(=O)Nc1ccc(C2SC(=Nc3ccc(F)cc3Cl)N(Cc3ccco3)C2=O)cc1 ; value: 1–5 µM

3 of the rows above, restated:

N#Cc1ccc2c(C3CCCCC3)c3n(c2c1)CCCc1ncccc1-3 ; value: 0.01–1 µM
CC(C)S(=O)(=O)NC(=O)c1ccc2c(C3CCCCC3)c3n(c2c1)CC(C(=O)N1CCOCC1)=Cc1ccccc1-3 ; value: 0.01–1 µM
CNC(=O)c1c(-c2ccccc2)oc2ccc(COC)cc12 ; value: <30 µM

a–b is a range or a potency band. Conditions beyond the fields shown may differ between rows.